We go through two molecules from US12173029B2, “Antiviral prodrugs, pharmaceutical formulations, and methods” (priority 2020, dated 2024).

Bounds are passed on as bounds.

What all share (assay type): cell-based
For data set [1], the system named is USA WA-01 strain of SARS CoV-2. The data set is described as follows: Example 2 anti-coronavirus activity in Vero E6 cells (qPCR spike RNA). The following applies: CC50/EC50, Vero E6 cells. The method, then:
Ten thousand Vero E6 cells were seeded in 100 microliters of culture medium in 96 well plates. The following day serial two-fold dilutions of antiviral compounds or the DMSO-containing vehicle were added to each well. The USA WA-01 strain of SARS CoV-2 was added to each well at a multiplicity of infection of 0.1 thirty minutes later. Cells were incubated for 48 hours, washed twice in PBS and lysed with TRIzol. RNA was extracted using Directzol micro RNA columns. RNA was made into cDNA and assayed for the SARS CoV-2 spike protein and for a housekeeping gene (RPLPO) RNA by qPCR. Data represents the average of duplicate wells. Cellular cytotoxicity was also measured in VERO E6 cells. […] Cytotoxicity (CC50) was assessed using a commercially available MTT assay.

Data set [2] relates to SARS-CoV-2 isolate USA-WA1/2020. The data set is described as follows: Example 7 SARS-CoV-2 infection in Huh7.5 cells (qRT-PCR). The following applies: Selectivity index CC50/EC50, Huh7.5 cells. On the technique in general: In qPCR the cycle at which signal appears reflects the starting amount.
Data set [3] has the same test system. The data set can be described thus: Example 3 SARS-CoV-2 infection in Vero E6 cells (qRT-PCR Spike RNA). The following applies: Selectivity index, CC50/EC50, Vero E6 cells.
Data set [4] has the same test system. The data set can be described thus: Example 7 SARS-CoV-2 infection in Vero E6 cells (qRT-PCR). The settings on record: Selectivity index CC50/EC50, Vero E6 cells.
The test system is the same in data set [5]. The data set is described as follows: Example 7 SARS-CoV-2 infection in Caco-2 cells (qRT-PCR). The following applies: Selectivity index CC50/EC50, Caco-2 cells.
The test system is the same in data set [6]. The data set is described as follows: Example 7 SARS-CoV-2 infection in Calu-3 cells (qRT-PCR). The settings on record: Selectivity index CC50/EC50, Calu-3 cells.
Data set [7] has the same test system. The data set can be described thus: Example 7 SARS-CoV-2 infection in PSC-human lung cells (qRT-PCR). The following applies: Selectivity index CC50/EC50, PSC-human lung cells.

With `CCCCCCCCCCCCCCCCOCCCOP(=O)(O)OC[C@H]1O[C@@](C#N)(c2ccc3c(N)ncnn23)[C@H](O)[C@@H]1O` [Compound 4b, 3-(Hexadecyloxy)propyl-phospho-RVn], the “Selectivity Index” value in data set [1] was found to be 25.0. Moreover, the results for the Selectivity in data set [2], in data set [3] and in data set [4] were more than 526, 52 and more than 158, respectively.

As for `CCCCCCCCCCCCCCCCCCOCCOP(=O)(O)OC[C@H]1O[C@@](C#N)(c2ccc3c(N)ncnn23)[C@H](O)[C@@H]1O` [Compound 4c, 2-(Octadecyloxy)ethyl-phospho-RVn], the Selectivity in data set [5] is more than 129; in data set [2], more than 526; in data set [3], more than 212; in data set [6], 290; in data set [4] it was more than 333; in data set [7], more than 454. In data set [1], the “Selectivity Index” value is listed as more than 143.
